# Molecular target: T1, SARS-CoV-2 Delta-S1 protein (SARS-CoV-2 Delta (B.1.617.2), strain)
# T1 construct: also called S1 protein of the Delta variant; source: bought: Sino Biological
# Test: SPR
# Details: both partners purified
binder,measurement,value
"ConD-852 (IgG form) (antibody, V domains shown) VH: QVQLVESGGGVVQPGRSLRLSCAASGFTFSSYGMHWVRQAPGKGLEWVALIWFDGSNKYYADSVKGRFTISRDNSKNTLYLQMNSLRAEDTAVYYCARDGLDLEWLFGLFDYWGQGTLVTVSS VL: not shown",Kd,0.35 nM
